Anti-infective test results gathered from many reports (values: NIAID ChemDB through PubChem).

Common to all: growth or infection tests

An empty or dashed field is not shown. a–b is a range or a potency band. Rows are shuffled and stem from different studies. Percent inhibition refers to the dose given; in toxicity tests it is the harm to the cells. ECn: concentration that inhibits the pathogen or its effect by n%. A number after MIC or MFC names an inhibition level or a share of isolates.

smiles,species,cell line,dose,read-out,strain,read by,value
C=CCc1ccc(OC)c(OC)c1,Candida tropicalis,,,MIC90,3189,turbidity,345 µg/mL
Cc1cn([C@@H]2O[C@H](CO)[C@@H](O)[C@@H]2F)c(=O)nc1N,Varicella zoster virus,HELF,0.001 µg/mL,inhibition,HIRAI,plaque count,4%
Nc1ccn([C@@H]2O[C@H](CO)[C@@H](O)[C@@H]2O)c(=O)n1,Herpes simplex virus 1,,,MIC,FRAN,,4.4 µg/mL
CN[C@H]1CC[C@@H](c2ccc(Cl)c(Cl)c2)c2ccccc21,Cryptococcus neoformans,,,MIC90,98BC1-86,broth dilution,5 µg/mL
Oc1ccc(O)c(C=Nc2ccccc2O)c1,Cryptococcus gattii,,,MIC99,23/10993,,11.3 µg/mL
N#Cc1cc([N+](=O)[O-])ccc1Oc1ccc(Cl)c(Cl)c1,Coxsackie virus,VERO,0.78 µg/mL,inhibition,TYPE A21,,>99%
Nc1ncnc2c1ncn2[C@@H]1C[C@H](O)[C@@H](O)[C@H]1O,Measles virus,CV-1,,EC50,,neutral red,<1 µg/mL
CNC(=O)c1ccc(-n2c(=O)c3c(n4ncc(CC5CCC5)c24)CN(C(=O)c2ccc(Br)c(C(F)(F)F)c2)[C@H](C)C3)cc1,Hepatitis B virus,HepG2.117,,EC50,,luminescence,≤0.05 µM
Nc1ncnc2c1ncn2[C@H]1CC[C@H](O)[C@@H]1O,Measles virus,CV-1,,EC50,,virus yield,3 µg/mL
Nc1nc2c(ncn2COC(CO)CO)c(=O)[nH]1,Varicella zoster virus,HEL,,EC50,Oka PFA-resistant/A,cytopathic effect,1.3 µM
Cc1cn([C@@H]2O[C@H](CO)[C@@H](O)[C@@H]2O)c(=O)[nH]c1=O,Varicella zoster virus,HELF,0.1 µg/mL,inhibition,HIRAI,plaque count,75%
CCC(CC)[C@H](NC(C)=O)[C@@H]1C[C@@H](C(=O)O)C[C@H]1N=C(N)N,Influenza A virus,MDCK,,EC50,Influenza A/Johannesburg/33/94 (H3N2),,0.1 µM
Nc1nc(=O)n([C@@H]2O[C@H](CO)[C@@H](O)[C@@H]2F)cc1I,Varicella zoster virus,HELF,0.001 µg/mL,inhibition,Asahikawa,plaque count,0%
Nc1nc2c(ncn2CCC(CO)CO)c(=O)[nH]1,Varicella zoster virus,HEL,,EC50,Clinical isolate VZV-32,cytopathic effect,2.55 µM
Oc1ccccc1N=Cc1cccc(O)c1O,Cryptococcus neoformans,,,MIC99,27JF,,5.7 µg/mL
O=C(O)P(=O)(O)O,Varicella zoster virus,HEL,,EC50,Clinical isolate VZV-33,cytopathic effect,89.7 µM
CCOC(=O)c1cnc(NCCCCNc2ccnc3cc(Cl)ccc23)nc1C,Cryptococcus gattii,,,MIC99,ATCC 32608,,16 µg/mL
Cc1n[nH]nc1-c1ccc(-n2c(=O)c3c(n4ncc(CC(C)C)c24)CN(C(=O)c2ccc(Br)c(C(F)(F)F)c2)[C@@H](C)C3)cc1,Hepatitis B virus,HepG2.117,,EC50,,luminescence,0.05–0.5 µM
CCOC(=O)c1ccc(OCCC2CCN(c3ccc(C)nn3)CC2)cc1,Rhinovirus,KB,,EC50,1505 (ICAM-1 receptor group 48),neutral red,0.136 µM
Cc1nc(NCCCCNc2ccnc3cc(Cl)ccc23)nc(-c2ccccc2)c1C(=O)OC(C)C,Cryptococcus gattii,,,MIC99,1913 ER,,8 µg/mL
CC(=O)N[C@H]1[C@H]([C@H](O)[C@H](O)CO)OC(C(=O)O)=C[C@@H]1N=C(N)N,Influenza A virus,MDCK,,EC50,H1N1 A/Bayern/07/95,,3.4 µM
O=c1[nH]c(=O)n([C@H]2C[C@H](O)[C@@H](CO)O2)cc1/C=C/Br,Varicella zoster virus,HELF,0.01 µg/mL,inhibition,YS,plaque count,48%
CCOC(=O)/C=C/[C@H](C[C@@H]1CCNC1=O)NC(=O)[C@@H](CC(=O)[C@@H](NC(=O)c1cc(C)on1)C(C)C)Cc1ccc(F)cc1,Rhinovirus,OHIO HELA-I,,EC50,Isolate 40,cytopathic effect / visual reading,0.01 µg/mL
Cn1nnnc1-c1ccc(-n2c(=O)c3c(n4ncc(Cc5ccccc5)c24)CN(C(=O)c2ccc(Br)c(Cl)c2)CC3)cc1,Hepatitis B virus,HepG2.117,,EC50,,luminescence,≤0.05 µM
CCCCCCCCCCCCOC(=O)[C@]1(O)C[C@@H](O)[C@@H](O)[C@H](OC(=O)/C=C/c2ccc(O)c(O)c2)C1,Aspergillus westerdijkiae,,,MIC50,CBS 112803,absorbance,2400 µM
CNC(=O)c1cc(-n2c(=O)c3c(n4ncc(Cc5ccccc5)c24)CN(C(=O)c2ccc(Br)c(C(F)(F)F)c2)CC3)nn1C,Hepatitis B virus,HepG2.117,,EC50,,luminescence,≤0.05 µM
Nc1ccn(C[C@@H](CO)OCP(=O)(O)O)c(=O)n1,Varicella zoster virus,HEL,,EC50,Oka PFA-resistant/B,cytopathic effect,0.25 µM
Nc1ncnc2c1ncn2[C@@H]1C[C@H](N)[C@@H](O)[C@H]1O,Measles virus,CV-1,,EC50,X-1108,neutral red,15 µg/mL
O=c1[nH]c(=O)n([C@@H]2O[C@H](CO)[C@@H](O)[C@@H]2O)cc1/C=C/Cl,Varicella zoster virus,HELF,0.01 µg/mL,inhibition,Asahikawa,plaque count,100%
Nc1ncnc2c1ncn2C[C@@H](CO)OCP(=O)(O)O,Varicella zoster virus,HEL,,EC50,Oka BVaraU-resistant,cytopathic effect,0.01 µM
CC(=O)N[C@H]1[C@H]([C@H](O)[C@H](O)CO)OC(C(=O)O)=C[C@@H]1N=C(N)N,Influenza A virus,MDCK,,EC50,H1N1 A/NWS/33,,>100 µM
CCC(CC)[C@H](NC(C)=O)[C@@H]1[C@H](O)[C@@H](C(=O)O)C[C@H]1N=C(N)N,Influenza B virus,MDCK,,EC50,Beijing/184/93,,0.06 µM
Nc1ncnc2c1ncn2[C@@H]1C=C[C@@H](O)[C@H]1O,Measles virus,CV-1,,EC50,BIL,cytopathic effect,>10 µg/mL